{"source": "paper PMC8387031", "about": "“Structures of Substrate Complexes of Foamy Viral Protease-Reverse Transcriptase”", "molecular_target": "MFV PR-RT full-length (marmoset foamy virus) (UniProt D5JWV1)", "test": "GF/MALS", "conditions": "2:1 protein:NA, 0.5 mM EDTA, peaks 171.0 kDa (dimer, major) and 131.8 kDa (monomer), GF/MALS: 20 mM HEPES pH 7.0, 250 mM NaCl, 5% glycerol, 1 mM DTT, cryo-EM: 150 mM NaCl, 20 mM HEPES pH 7.0, 1 mM DTT, recombinant protein", "note": "For at least one entry, the source does not settle the construct or the ends of the probe.", "data": [{"sequence": "GTGAGCGAACAGAGTGCGACACCTGATTCCATG / TCATGGAATCAGGTGTCGACTCTGTTC [GF/MALS dsDNA]", "values": [{"measurement": "binding result", "value": "binds"}]}]}
